## Library screen at single concentrations

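Whole-cell growth test on Mycobacterium tuberculosis, read after 4 days in a medium based on cholesterol and the lipid DPPC; the read-out is not stated. Concentration: 500 µM. Direction is inferred from retests: higher values go with more growth inhibition. About 18,000 compounds were tested under these conditions; 5% (about 900) showed 50% or more at least once.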

Values are the deposited “Percent Effect”, in %. How 0% and 100% were set is not recorded. Most values in the screen are low, and negative values occur. Many other results are left out here, so strong results are more common than in the screen.

{"compound": "CN(CCOc1ccc(Cl)cc1)CCC(N)=O", "percent effect": 47.07}
{"compound": "Cc1c(C(=O)NC2=NCCS2)oc2ccccc12", "percent effect": 88.43}
{"compound": "CNc1ccc(OCCN2CCCC2)cc1", "percent effect": 25.54}
{"compound": "CC(C)C(=O)CNC(=O)C(O)c1ccccc1", "stereo": "stereo not shown", "percent effect": 3.727}
{"compound": "CN(C)C(=O)Cn1cnc2ccsc2c1=O", "percent effect": 19.74}
{"compound": "CC(CC(=O)N1CCOCC1)c1ccccc1", "stereo": "stereo not shown", "percent effect": 39.43}
{"compound": "CCC[C@H]1CN(C(=O)c2cccc(COC)n2)C[C@@H]1N", "percent effect": -3.804}
{"compound": "CCOC(=O)c1cnc(N2CCNCC2)s1", "percent effect": 58.64}
{"compound": "CC[C@@H](N)c1ccc(F)cc1", "percent effect": 5.722}
{"compound": "Oc1ncccc1F", "percent effect": -15.41}
{"compound": "c1ncn(CCN2CCOC3(CCCC3)C2)n1", "percent effect": 0.378}
{"compound": "N#CCCCn1ccccc1=O", "percent effect": -7.093}
{"compound": "CCSC1(CNC(=O)c2ccc[nH]2)CCOCC1", "percent effect": 22.27}
{"compound": "Fc1ccc2nc(N3CCCNCC3)oc2c1F", "percent effect": 68.98}
{"compound": "CCN(CC1CCOC1)C(=O)c1cc(I)c[nH]1", "stereo": "stereo not shown", "percent effect": 59.56}
{"compound": "NCC1(OCCO)CCOCC1", "percent effect": -7.31}
{"compound": "CC1CCN(C(CN)c2cccs2)CC1", "stereo": "stereo not shown", "percent effect": 71.01}
{"compound": "CC(C)n1c(CO)nc2ccccc21", "percent effect": 4.59}
{"compound": "CCSCC(=O)N(C)Cc1nc(C(C)C)no1", "percent effect": -4.048}
{"compound": "Cc1nc(CN2CCN(CC3(O)CCNC3)CC2)cs1", "stereo": "stereo not shown", "percent effect": -15.2}
{"compound": "COc1ccnc(N2CC(O)(C3CC3)C2)n1", "percent effect": 15.03}
{"compound": "COc1ccc(C(=O)NC2=NCCS2)cn1", "percent effect": 19.51}
{"compound": "O=C1CC(c2ccccc2)C(=O)N1", "stereo": "stereo not shown", "percent effect": -11.83}
{"compound": "CNC(=O)c1cccnc1NCC1CC1", "percent effect": 12.13}
{"compound": "OCC1(O)CCCN(c2ccnc3ccc(Cl)cc23)C1", "stereo": "stereo not shown", "percent effect": -6.56}
{"compound": "CCN(CC)C(=O)c1ccc(=O)n(CCOC)n1", "percent effect": -5.745}
{"compound": "CNC(CO)c1ccccc1", "stereo": "stereo not shown", "percent effect": -9.98}
{"compound": "Cc1nnc(C2CCCN2)o1", "stereo": "stereo not shown", "percent effect": -4.692}
{"compound": "CC1CN(CCC(=O)Nc2cccnc2)CCCO1", "stereo": "stereo not shown", "percent effect": -4.607}
{"compound": "CNC(=O)CN1CCCC1COc1ccccc1", "stereo": "stereo not shown", "percent effect": 19.45}
{"compound": "CCOc1cccc(CCN)n1", "percent effect": 101.2}
{"compound": "Cc1ccccc1C(=O)N1CCC2(CC1)OCC(C)O2", "stereo": "stereo not shown", "percent effect": 10.8}
{"compound": "CNc1nc(C(=O)NC2COc3ccccc3C2)cs1", "stereo": "stereo not shown", "percent effect": 74.44}
{"compound": "CCc1cnc(N2CCNCC2)s1", "percent effect": -3.469}
{"compound": "NS(=O)(=O)N1CCC(NC(=O)CC2CCCCC2)CC1", "percent effect": 1.625}
{"compound": "CC(C)OCC(=O)N1C[C@@H](C)[C@](O)(C2CC2)C1", "percent effect": -17.23}
{"compound": "CCc1nc(C)c(C(=O)N2CCOCC(O)C2)o1", "stereo": "stereo not shown", "percent effect": 6.156}
{"compound": "CC(NC(=O)CSc1nc(=O)[nH]n1C)c1cccs1", "stereo": "stereo not shown", "percent effect": 95.31}
{"compound": "CN(C)CCNC(=O)c1ccc(Br)o1", "percent effect": -11.97}
{"compound": "Cc1ccc(OC2CN(C(=O)[C@H](N)C(C)C)C2)cc1", "percent effect": 45.67}
{"compound": "CCS(=O)(=O)Nc1cccc(C(C)=O)c1", "percent effect": 30.05}
{"compound": "NC1CCN(Cc2ccccc2F)CC1", "percent effect": 52.31}
{"compound": "CC(C)N(C)S(=O)(=O)N(C)Cc1ccc(Br)o1", "percent effect": 83.9}
{"compound": "CCN1CCN(C(C)c2nc(C)no2)CC1", "stereo": "stereo not shown", "percent effect": 6.815}
{"compound": "NCCN1C(=O)c2ccccc2S1(=O)=O", "percent effect": -7.09}
{"compound": "Cc1cc(C(=O)NCc2ccc(F)cc2)[nH]n1", "percent effect": 58.95}
{"compound": "Cc1c[nH]c(C(C)NC(=O)c2ccc3[nH]nnc3c2)n1", "stereo": "stereo not shown", "percent effect": 5.341}
{"compound": "Cc1ccc(-n2nnnc2NCC2CCCO2)cc1", "stereo": "stereo not shown", "percent effect": 66.03}
{"compound": "CCC(NC(=O)CSc1ccccn1)c1ccncc1", "stereo": "stereo not shown", "percent effect": -12.19}
{"compound": "COc1ccc(-c2nc(CCN)co2)cc1", "percent effect": 78.68}
{"compound": "Cc1nccn1CCCN1CCCC1C(=O)N(C)C", "stereo": "stereo not shown", "percent effect": -2.139}
{"compound": "Cc1ccc(NC(=O)CN(C)C(=O)C(C)C)cc1", "percent effect": 23.6}
{"compound": "CNC(CO)c1cccc(Cl)c1Cl", "stereo": "stereo not shown", "percent effect": 24.26}

5 of the entries, repeated:

Cc1nccn1CCCN1CCCC1C(=O)N(C)C (stereo not shown) gave -2.139%.
CC(NC(=O)CSc1nc(=O)[nH]n1C)c1cccs1 (stereo not shown) gave 95.31%.
CN(C)CCNC(=O)c1ccc(Br)o1 gave -11.97%.
O=C1CC(c2ccccc2)C(=O)N1 (stereo not shown) gave -11.83%.
Cc1cc(C(=O)NCc2ccc(F)cc2)[nH]n1 gave 58.95%.

Data taken from ChEMBL document CHEMBL3988442, “University of Dundee, Small-Polar-MMV Screening Library” (2021).